# Percent effect of library compounds

Measurements from “University of Dundee, Small-Polar-MMV Screening Library” (2021), ChEMBL document CHEMBL3988442.

Mtb glucose medium: 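Phenotypic screen: M. tuberculosis growth, glucose 7H9 medium, 3 days; the read-out is not stated. Concentration: 500 µM. Higher reads as more growth inhibition (inferred: compounds with an IC50 in retests scored well above the rest). Size under these conditions: about 18,000 compounds, about 1,400 of them at 50% or above in at least one test.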
Mtb cholesterol medium: 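Growth of Mycobacterium tuberculosis over 4 days (cholesterol / DPPC medium with tyloxapol); the read-out is not stated. Concentration: 500 µM. Direction is inferred from retests: higher values go with more growth inhibition. Size under these conditions: about 18,000 compounds, about 900 of them at 50% or above in at least one test.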

Values are the deposited “Percent Effect”, in %. How 0% and 100% were set is not recorded. Most values in the screen are low, and negative values occur. This is part of a subset picked to be rich in strong results. A dash means the value is not listed here; it may have been measured.

Cn1nc2n(c1=O)CCN(S(C)(=O)=O)CC2 gave Mtb glucose medium: -4.857%. Result for Cc1cc(C)c(C(=O)N2CCOCC(CO)C2)c(=O)[nH]1 (configuration not stated) was Mtb glucose medium: -7.518%. For Cn1cc(NC(=O)Nc2ccc(F)cc2)c(C(N)=O)n1 the result was Mtb glucose medium: 24.9%. With Cc1nn(C)c(C(=O)NC2CC2)c1Br the screen gave Mtb glucose medium: 18.89%. For CN(CC(N)=O)CC(=O)N(C)Cc1cc(Br)cs1 the result was Mtb glucose medium: 17.49%. O=C(Nc1ccc(N2CCOCC2)cc1)C1CCCO1 (configuration not stated) read Mtb glucose medium: -15.08%. Result for OC(CNCc1csnn1)Cc1ccc(F)cc1F (configuration not stated) was Mtb glucose medium: 16.18%.

CN(CCN)C(C1CC1)C1CC1 read Mtb cholesterol medium: 3.86%. With CCc1ccc(NC(=O)CN2CC[C@@H](N)C2)cc1 the screen gave Mtb glucose medium: 54.73%. For CCS(=O)(=O)CCn1nnc(-c2ccc(Br)cc2)n1 the result was Mtb glucose medium: 49.11%; Mtb cholesterol medium: 33.36%. For CNC(=O)CCNC(=O)c1sc2ccccc2c1C the result was Mtb glucose medium: 39.01%. With CC(C)n1cc(NC(=O)c2cccnc2N(C)C)cn1 the screen gave Mtb glucose medium: 20.6%. With CN(C)[C@@H]1CN(C(=O)C2CCC2)C[C@H]1CO the screen gave Mtb glucose medium: -19.29%. CC(C)Cc1cc(C(=O)N(C)Cc2cnccn2)on1 gave Mtb glucose medium: 58.48%; Mtb cholesterol medium: 55.9%.

CNC(=O)c1cccc(NS(=O)(=O)c2ccccc2)c1 read Mtb glucose medium: 33.3%. With NCCCC(=O)N(Cc1cccc(F)c1)C1CC1 the screen gave Mtb glucose medium: 37.53%. Cc1n[nH]cc1CNC(CS(C)(=O)=O)c1ccccc1 (configuration not stated) gave Mtb glucose medium: 15.1%. For Cc1ncncc1C(=O)NCC(C)(C)CN(C)C the result was Mtb cholesterol medium: 0.6288%. Result for CC1CCC(NC(=O)c2ccc(S(N)(=O)=O)cc2)CC1 (configuration not stated) was Mtb glucose medium: -2.101%. With NC1(c2nc(-c3ccccc3)c[nH]2)CCCC1 the screen gave Mtb glucose medium: 63.06%; Mtb cholesterol medium: 67.14%. For CC(=O)NCCc1ccc(OC(F)F)cc1 the result was Mtb glucose medium: 49.62%.

With Cn1ccc2ccnc(N3CCC(C(N)=O)CC3)c21 the screen gave Mtb cholesterol medium: 0.4883%. CCN1CCCC1CNC(=O)c1c[nH]nn1 (configuration not stated) read Mtb glucose medium: 2.808%. For N#CCSc1ccccc1C(=O)NC1CCS(=O)(=O)C1 (configuration not stated) the result was Mtb glucose medium: 8.419%. COc1ccc(CC(=O)N2CCCNCC2)cc1 read Mtb glucose medium: 46.73%; Mtb cholesterol medium: 8.089%.

The first 2 entries again:

Compound,Mtb glucose medium,Mtb cholesterol medium
Cn1nc2n(c1=O)CCN(S(C)(=O)=O)CC2,-4.857,-
Cc1cc(C)c(C(=O)N2CCOCC(CO)C2)c(=O)[nH]1 (configuration not stated),-7.518,-